Taken from: PubChem BioAssay AID624099 (ICCB-Longwood, 2012)
Assay: 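Knock-downs relieving repression by E2 of an HPV18 LCR luciferase reporter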 (primary screen). Cells: human C33A cervical carcinoma cells (HPV-negative) stably expressing BPV1 E2 and an HPV18 LCR luciferase reporter. Reagent: siRNA pool against human genes, 40 nM. Duration: 72 h. Detection: 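Per-well luciferase luminescence, z-scored on each plate against the plate mean and SD with control wells left out, then averaged across three replicate plates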. Reading the numbers: mean z-score and z-score: higher = stronger reporter signal, weaker E2 silencing. Hit rule: 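Hit if mean z-score reaches 2 and two or more of three replicate z-scores also reach 2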.
In all, the deposit lists about 21,000 reagents; this is a part drawn at random. In the full data, 497 (2.4%) were called active. 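Higher z means weaker E2 silencing; only reporter increases were scored, and knock-downs that hurt cell survival may mask genuine repressor factors.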 The numbers tell different reagents against one gene apart.

For SLC35G3, what was measured?
mean z-score: -0.42; z-score, replicate A: 0.23; z-score, replicate B: -0.56; z-score, replicate C: -0.91; Outcome: inactive

With RADX, what does the deposit list?
mean z-score: 0.34; z-score, replicate A: 0.48; z-score, replicate B: 0.44; z-score, replicate C: 0.1; Outcome: inactive

With RTP4, what does the deposit list?
mean z-score: 0.93; z-score, replicate A: 0.97; z-score, replicate B: 1.17; z-score, replicate C: 0.65; Outcome: inactive

For SLC17A9, how do the results read?
mean z-score: 1.54; z-score, replicate A: 1.64; z-score, replicate B: 1.53; z-score, replicate C: 1.44; Outcome: inactive

For GNAL, what was measured?
mean z-score: 0.92; z-score, replicate A: 0.82; z-score, replicate B: 1.11; z-score, replicate C: 0.85; Outcome: inactive

What did the screen give for KLHL33?
mean z-score: -1.19; z-score, replicate A: -1.61; z-score, replicate B: -0.88; z-score, replicate C: -1.07; Outcome: inactive

How did the screen score UBQLN3?
mean z-score: 0.3; z-score, replicate A: 0.49; z-score, replicate B: 0.03; z-score, replicate C: 0.39; Outcome: inactive

For PPP1R15B, what was measured?
mean z-score: 1.15; z-score, replicate A: 1.26; z-score, replicate B: 1.18; z-score, replicate C: 1; Outcome: inactive

With SLC66A3, how do the results read?
mean z-score: 1.61; z-score, replicate A: 1.65; z-score, replicate B: 1.89; z-score, replicate C: 1.3; Outcome: inactive

Which result is listed for RBPJL?
mean z-score: 0.06; z-score, replicate A: 0.1; z-score, replicate B: 0.1; z-score, replicate C: -0.02; Outcome: inactive

For SCNM1, what does the deposit list?
mean z-score: 0.96; z-score, replicate A: 1.25; z-score, replicate B: 0.72; z-score, replicate C: 0.92; Outcome: inactive

What did the screen give for MUC12 #1?
mean z-score: -0.04; z-score, replicate A: -0.38; z-score, replicate B: 0.1; z-score, replicate C: 0.15; Outcome: inactive

With MUC12 #2, what was measured?
mean z-score: 0.64; z-score, replicate A: 0.65; z-score, replicate B: 0.69; z-score, replicate C: 0.58; Outcome: inactive

How did the screen score PSMA8?
mean z-score: 1.19; z-score, replicate A: 1.08; z-score, replicate B: 0.69; z-score, replicate C: 1.81; Outcome: inactive

For LMF1, what does the deposit list?
mean z-score: -0.45; z-score, replicate A: -0.53; z-score, replicate B: -0.51; z-score, replicate C: -0.32; Outcome: inactive

What is on record for MT-CO1?
mean z-score: 1.05; z-score, replicate A: 0.9; z-score, replicate B: 1.08; z-score, replicate C: 1.17; Outcome: inactive

For S100Z, what was measured?
mean z-score: -0.18; z-score, replicate A: 0.05; z-score, replicate B: -0.33; z-score, replicate C: -0.24; Outcome: inactive

With NDUFAF5, how do the results read?
mean z-score: 0.03; z-score, replicate A: 0.17; z-score, replicate B: -0.15; z-score, replicate C: 0.06; Outcome: inactive

With TAF5L, what does the deposit list?
mean z-score: 0.32; z-score, replicate A: 0.16; z-score, replicate B: 0.43; z-score, replicate C: 0.37; Outcome: inactive

With RAB27A, how do the results read?
mean z-score: 0.57; z-score, replicate A: 0.75; z-score, replicate B: 0.44; z-score, replicate C: 0.52; Outcome: inactive

Which result is listed for NIPBL?
mean z-score: 0.7; z-score, replicate A: 0.79; z-score, replicate B: 0.61; z-score, replicate C: 0.69; Outcome: inactive

With PDXDC1, what does the deposit list?
mean z-score: -0.73; z-score, replicate A: -0.32; z-score, replicate B: -1.03; z-score, replicate C: -0.84; Outcome: inactive

With CORO1A, how do the results read?
mean z-score: 0.68; z-score, replicate A: 0.77; z-score, replicate B: 0.78; z-score, replicate C: 0.49; Outcome: inactive

For UBA7, what does the deposit list?
mean z-score: 0.13; z-score, replicate A: 0.28; z-score, replicate B: -0.11; z-score, replicate C: 0.22; Outcome: inactive

For NCAPG, what does the deposit list?
mean z-score: 1.16; z-score, replicate A: 1.62; z-score, replicate B: 1.27; z-score, replicate C: 0.6; Outcome: inactive

For LRGUK, what does the deposit list?
mean z-score: -0.91; z-score, replicate A: -1.08; z-score, replicate B: -0.97; z-score, replicate C: -0.69; Outcome: inactive

With TTR, what was measured?
mean z-score: 0.62; z-score, replicate A: 0.56; z-score, replicate B: 0.78; z-score, replicate C: 0.53; Outcome: inactive

An excerpt from above, limited to “z-score, replicate C”:
MUC12 #2	0.58
PSMA8	1.81
LMF1	-0.32
MT-CO1	1.17
